The values that follow come from patent US6841566B2, “Viral polymerase inhibitors” (Boehringer Ingelheim, Ltd., priority 2001, dated 2005).

Amino acid sequences for entries named in this document (tags omitted). Chains listed by the source or under a name are the forms on record and can include a tag or linker. Residues count along the entry.
UniProt P26663, 2420-3010 with tags or gaps with the stated changes: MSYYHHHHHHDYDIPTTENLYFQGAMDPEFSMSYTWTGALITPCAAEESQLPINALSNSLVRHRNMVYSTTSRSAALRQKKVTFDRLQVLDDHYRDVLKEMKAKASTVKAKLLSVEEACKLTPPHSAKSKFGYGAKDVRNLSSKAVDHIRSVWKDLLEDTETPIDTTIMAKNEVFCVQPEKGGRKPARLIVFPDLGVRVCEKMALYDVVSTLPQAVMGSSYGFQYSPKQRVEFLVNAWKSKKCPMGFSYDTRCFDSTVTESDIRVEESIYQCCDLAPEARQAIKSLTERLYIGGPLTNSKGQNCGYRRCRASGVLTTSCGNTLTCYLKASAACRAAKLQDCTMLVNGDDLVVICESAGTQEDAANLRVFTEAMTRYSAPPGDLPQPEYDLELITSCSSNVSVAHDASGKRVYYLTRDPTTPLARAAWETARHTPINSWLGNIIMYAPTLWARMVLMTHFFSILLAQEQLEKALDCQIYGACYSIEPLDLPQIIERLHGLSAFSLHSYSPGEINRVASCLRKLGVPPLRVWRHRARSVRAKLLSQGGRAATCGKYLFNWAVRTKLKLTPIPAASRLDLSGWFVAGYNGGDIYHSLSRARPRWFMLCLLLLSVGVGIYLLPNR

Assay [1] addresses hepatitis C virus RNA dependant polymerase (NS5B) (Hepatitis C virus genotype 1b, UniProt P26663). Particulars: HCV NS5B polymerase assay of Example 22.
Assay [2] relates to Huh7 cells that stably maintain a subgenomic HCV replicon (S22.3 cell-line). The assay can be described thus: Cell based HCV RNA replication assay (S22.3 replicon cells, real-time RT-PCR). Particulars: 72 hours. How it is done:
Huh7 cells that stably maintain a subgenomic HCV replicon were established as previously described (Lohman et al., 1999. Science 285: 110-113) and designated as the S22.3 cell-line. S22.3 cells were maintained in Dulbecco's Modified […] Medium (DMEM) supplemented with 10% FBS and 0.5 mg/mL neomycin (Standard Medium). During the assay, DMEM medium supplemented with 10% FBS, containing 0.5% DMSO and lacking neomycin was used (Assay Medium). 16 hours prior to compound addition, S22.3 cells are trypsinized and diluted to 100 000 cells/ml in Standard Medium. 100μL (10 000 cells) are distributed into each well of a 96-well plate. The plate was then incubated at 37° C. with 5% CO2 until the next day.
10 μL of test compound (in 100% DMSO) was added to 2 ml of Assay Medium for a final DMSO concentration of 0.5% and the solution was sonicated for 15 min and filtered through a […] Millipore Filter Unit. 900 μl was transferred into row A of a Polypropylene Deep-Well Titer Plate. Rows B to H, contain 400 μL aliquots of Assay Medium (containing 0.5% DMSO), and were used to prepare serial dilutions (1/2) by transferring 400 μl from row to row (no compound was included in row H).
Cell culture medium was aspirated from the 96-well plate containing the S22.3 cells. 175 μL of assay medium with the appropriate dilution of test compound was transferred from each well of the compound plate to the corresponding well of the cell culture plate (row H was used as the “No inhibition control”). The cell culture plate was incubated at 37° C. with 5% CO2 for 72 hours.
Following the 72 hour incubation period, the total cellular RNA was extracted from the S22.3 cells of the 96-well plate using the RNeasy 96 kit (Qiagen®, RNeasy Handbook. 1999.). Briefly, assay medium was completely removed from cells and 100 μL of RLT buffer (Qiagen®) containing 143 mM β-mercaptoethanol was added to each well of the 96-well cell-culture plate. The microplate was gently shaken for 20 sec. […]
RNA was quantified on the STORM® system (Molecular Dynamics®) using the RiboGreen® RNA Quantification Kit (Molecular Probes®). […]
(In antiviral work, replicon cells carry a viral genome segment that copies itself.)

In general, IC50 refers to the concentration needed to halve the response being measured. The low end stands for greater potency, the high end for weaker potency. By EC50 is commonly meant the concentration that produces a half-maximal response.

Molecules are shown by their SMILES.

In assay [1], `Cc1nc(Nc2ccc(NC(=O)C3(NC(=O)c4ccc5c(c4)nc(-c4ccoc4)n5C4CCCCC4)CCCC3)cn2)sc1C(=O)O` yielded an IC50 of 0.5 to 5 µM.
Consider `C[C@@H](NC(=O)c1ccc2c(n1)nc(-c1ccoc1)n2C1CCCCC1)C(=O)Nc1ccc(/C=C/C(=O)O)cc1`, for which the EC50 in assay [2] fell in the range of 5 to 50 µM. The 50% inhibitory concentration (IC50) in assay [1] was below 0.5 µM.
In turn, `Cc1cc2c(cc1C(=O)N[C@H](C)C(=O)Nc1ccc(/C=C/C(=O)O)cc1)nc(-c1ccoc1)n2C1CCCCC1` displayed a half-inhibitory concentration (IC50) in assay [1] of 0.5 to 5 µM.
For the compound `C=CC1CC1(NC(=O)c1ccc2c(c1)nc(-c1ccoc1)n2C1CCCCC1)C(=O)Nc1ccc(/C=C/C(=O)O)cc1` (single isomer, unassigned), the 50% effective concentration (EC50) in assay [2] is below 5 µM. In assay [1], this compound yielded an IC50 below 0.5 µM.
The corresponding values for `Cc1c(C(=O)N[C@H](C)C(=O)Nc2ccc(/C=C/C(=O)O)cc2)ccc2c1nc(-c1ccoc1)n2C1CCCCC1` are 5 to 50 µM and 0.5 to 5 µM.
With `CC(NC(=O)c1ccc2c(c1)nc(-c1ccoc1)n2C1CCCCC1)C(=O)Nc1ccc(OCC(=O)O)cc1` (stereo not drawn), the 50% inhibitory concentration (IC50) in assay [1] lay within 0.5 to 5 µM.
